Measurements as given in article PMC7144120, “Psoralen Derivatives as Inhibitors of Mycobacterium tuberculosis Proteasome” (Molecules, 2020).

System: ß5i of IP
Assay: Inhibition of ß5i subunit of immunoproteasome (previously published data)
Settings: human IP vs Mtb proteasome

| Structure (SMILES) | selectivity towards the human IP over Mtb proteasome |
| --- | --- |
| COc1ccc(C[C@H](NC(=O)[C@H](C)NC(=O)CN2CCOCC2)C(=O)N[C@@H](Cc2ccccc2)C(=O)[C@@]2(C)CO2)cc1 [PR-957, reference compound] | ~300 fold |
| CC(C)C[C@H](NC(=O)[C@H](Cc1ccccc1)NC(=O)c1cnccn1)B(O)O [Bortezomib, reference compound] | approximately 30 fold |
